A mixed list of measured activities; the numbers were collected in NIAID ChemDB.

Shared fields: tests in culture; agent: Mycobacterium tuberculosis

ECn: concentration that inhibits the pathogen or its effect by n%. Two numbers with a dash give a range or band. Lines come from different laboratories, so protocols vary. MIC bound: limit read from a one-dose screen. Blank or dashed fields: not listed here. A number after MIC or MFC names an inhibition level or a share of isolates. Inhibition is in % at the dose shown (toxicity tests: loss of growth or viability).

smiles,mutations,read by,cell line,dose,setting,measure,strain or isolate,result
CC(NNC(=O)c1ccncc1)c1cccc(C(F)(F)F)c1,,,,,,MIC,Ethambutol-resistant,≤0.78 µg/mL
Cc1nn(-c2ccccc2)c2c1C(c1ccccc1)c1c(nc(=O)[nH]c1N)O2,,,,62.5 µg/mL,,inhibition,H37Rv,8%
Cc1cn2c(C(=O)NCc3ccc(N4CCOCC4)c(F)c3)c(C)nc2s1,QcrB7 S182P,resazurin / fluorescence,,,,MIC,H37Rv,25 µM
CC(=O)Nc1ccc(/C=N/NC(=S)Nc2ccc3cn[nH]c3c2)cc1,,BACTEC,,12.5 µg/mL,,inhibition,H37Rv,0%
Cc1ccc(-c2cnc(Nc3cccc(OCCCN(C)C)c3)c(C(N)=O)n2)cc1,,resazurin,,,,MIC,H37Rv (ATCC 27294),4 µg/mL
Cc1nn(-c2ccccc2)c2c1C(c1ccc(Cl)cc1)c1c(nc(=O)[nH]c1N)O2,,,,62.5 µg/mL,,inhibition,H37Rv,44%
COc1cccc(CNC(=O)c2c(C)nc3sc(C)cn23)c1,,resazurin / fluorescence,,,,MIC,H37Rv,1.12 µM
C/C(=N\NC(=O)c1ccncc1)c1ccccc1F,,,,,,MIC,H37Rv (ethambutol-resistant),1 µg/mL
O=C(/C=C/c1ccc(Cl)cc1Cl)c1c(O)c2ccccc2oc1=O,,agar,,,,MIC90,H37Rv,>6.25 µg/mL
Nc1nc(-c2cccc([N+](=O)[O-])c2)cc(-c2cc3cc(Br)ccc3nc2Cl)n1,,broth dilution,,6.25 µg/mL,,inhibition,H37Rv,99%
O=C(CSc1nc2ccc(Cl)cc2c(=O)n1-c1ccccc1)N=Nc1c(O)[nH]c2ccccc12,,,,,,EC50,H37Rv,<12 µg/mL
C/C(=N\NC(=O)c1ccncc1)c1ccc(F)cc1,,,,,,MIC,Isoniazid-resistant,>1.6 µg/mL
CCCCCCCCCC(O)CC(=O)CCc1ccc(O)c(OC)c1,,,,,,MIC,H37Rv,50 µg/mL
Cc1ccc(S(=O)(=O)NC(=O)ON2CCCCC2)cc1,,BACTEC,,,,MIC bound,H37Rv,>12.5 µg/mL
O=C(/C=C/c1cc2cc(F)ccc2nc1Cl)c1cccs1,,broth dilution,,6.25 µM,,inhibition,H37Rv,21%
CC1(C)COC(c2ccccc2Cl)N1,,BACTEC,,12.5 µg/mL,,inhibition,H37Rv,22%
Cc1nn(-c2ccccc2)c2c1C(c1cccc([N+](=O)[O-])c1)c1c(nc(=S)[nH]c1N)O2,,,,62.5 µg/mL,,inhibition,H37Rv,33%
COc1ccc(C(C)NNC(=O)c2ccncc2)cc1OC,,,,,,MIC,H37Rv,12.5 µg/mL
Cc1nn(-c2ccccc2)c2c1C(c1ccc(F)cc1)c1c(nc(=O)[nH]c1N)O2,,,,62.5 µg/mL,,inhibition,H37Rv,93%
Cc1cc2oc(=O)c(C3=NN(c4ccccc4)C(c4ccc(Cl)cc4Cl)C3)c(O)c2cc1C,,agar,,,,MIC90,H37Rv,>6.25 µg/mL
Cc1ccc(N=Nc2ccc(N(C)C)cc2)c2cccnc12,,resazurin,,,,MIC bound,H37Rv,>6.25 µg/mL
COc1nc2ccc(Br)cc2cc1[C@@H](c1ccccc1)[C@](O)(CCN(C)C)c1cccc2ccccc12,,resazurin,,,,MIC,H37Rv,>32 µg/mL
CC(C)N=c1cc2n(-c3ccc(Cl)cc3)c3ccccc3nc-2cc1Nc1ccc(Cl)cc1,,broth dilution / resazurin,,,,MIC,MDR13,0.5 µg/mL
COC(=O)c1ccc(C(=O)OC)c2nc3cc(C)ccc3nc12,,BACTEC,,12.5 µg/mL,,inhibition,H37Rv,7%
COc1cc2ccc(Br)cc2cc1[C@@H](c1ccc(Cl)cc1)[C@@](O)(CCN(C)C)c1ccccc1Br,,resazurin,,,,MIC,Clinical isolate,0.096 µg/mL
O=[N+]([O-])c1ccc2c(c1)SC1=NN3C(O)COC(OCc4ccccc4)C3N12,,BACTEC,,,,MIC bound,H37Rv,>12.5 µg/mL
C=C[C@@]1(C)C=C2CC[C@@H]3[C@@](C)([C@H](O)CC(=O)[C@@]3(C)CC)[C@H]2C[C@H]1O,,broth dilution,,,,MIC90,,12 µg/mL
CC1CN(c2cc3c(cc2F)c(=O)c(C(=O)O)cn3-c2ccc(F)cc2F)CCN1,,,,,,MIC90,,2.3 µg/mL
CCOC(=O)C1CCCc2c1[nH]c1c(C(N)=O)cccc21,,broth dilution,,,,EC50,,3.38 µM
Cc1ccc(-c2cnc(Nc3ccc(OCCCN4CCN(C)CC4)cc3)c(C(N)=O)n2)cc1F,,resazurin,,,,MIC,H37Rv (ATCC 27294),0.5 µg/mL
CC[C@H]1OC(=O)[C@H](C)[C@@H](O[C@H]2C[C@@](C)(OC)[C@@H](O)[C@H](C)O2)[C@H](C)[C@@H](O[C@@H]2O[C@H](C)C[C@H](N(C)C)[C@H]2O)[C@](C)(O)C[C@@H](C)C(=O)[C@H](C)[C@@H](O)[C@]1(C)O,,,,,,MIC50,,>10 µg/mL
C=C1C(=O)O[C@H]2/C=C(/C)[C@H](OC(C)=O)[C@@H]3O[C@H]3[C@@](C)(O)C[C@H](OC(=O)/C(C)=C\C)[C@H]12,,BACTEC,,,,MIC,H37Rv,≥12.5 µg/mL
Cc1ccc(-c2cnc(Nc3ccc(OCCCN4CCN(C)CC4)cc3)c(C(N)=O)n2)cc1C,,resazurin,,,,MIC,H37Rv (ATCC 27294),1 µg/mL
Cc1nn(-c2ccccc2)c2c1C(c1ccc(F)cc1)C(C#N)=C(N)O2,,,,62.5 µg/mL,,inhibition,H37Rv,42%
Nc1nc(-c2ccc(F)cc2)cc(-c2cc3cc(F)ccc3nc2Cl)n1,,broth dilution,,6.25 µg/mL,,inhibition,H37Rv,36%
O=C(NNCc1ccccc1)c1ccncc1,,,,,,MIC,Thiacetazone-resistant,>6.25 µg/mL
O=C1C=C(Nc2cccc(C(=O)O)c2)c2ccccc2C1=O,,resazurin,,,,MIC bound,H37Rv,>6.25 µg/mL
COc1c([C@@H](c2ccccc2)[C@@](O)(CCN(C)C)c2cccc3ccccc23)cc2cc(Br)ccc2c1Br,,resazurin,,,,MIC,Clinical isolate,0.182 µg/mL
CC(=O)N1CCN(c2ccc(OC[C@H]3CO[C@](Cn4ccnc4)(c4ccc(Cl)cc4Cl)O3)cc2)CC1,,resazurin,,,,MIC bound,H37Rv,<6.25 µg/mL
CO[C@H]1/C=C/O[C@@]2(C)Oc3c(C)c(O)c4c(=O)c(c5oc6cc(N7CCN(CC(C)C)CC7)cc(=O)c6nc5c4c3=C2O)NC(=O)/C(C)=C\C=C\[C@H](C)[C@H](O)[C@@H](C)[C@@H](O)[C@@H](C)[C@H](OC(C)=O)[C@@H]1C,,,,,,MIC90,22 strains (rifampicin-susceptible),≤0.05 µg/mL
CC1=CC(=Nc2[nH+]cc(-c3ccc(C)c(F)c3)nc2C(N)=O)CC(=O)N1CCN1CCOCC1,,resazurin,,,,MIC,H37Rv (ATCC 27294),2 µg/mL
CO[C@H]1/C=C/O[C@@]2(C)Oc3c(C)c(O)c4c(=O)c(c5oc6cc(N7CCN(CC(C)C)CC7)cc(=O)c6nc5c4c3=C2O)NC(=O)/C(C)=C\C=C\[C@H](C)[C@H](O)[C@@H](C)[C@@H](O)[C@@H](C)[C@H](OC(C)=O)[C@@H]1C,,,,,,MBC,H37Rv,0.15–0.3 µg/mL
NC(=O)c1ccc[n+](Cc2ccc(Cl)cc2Cl)c1.[Cl-],,BACTEC,,12.5 µg/mL,,inhibition,H37Rv,0%
CN=C(N=Nc1c(O)[nH]c2ccccc12)SCC(=O)c1ccccc1,,,,,,EC50,H37Rv,<12 µg/mL
O=C(O)C1CCCCC1OC1CCCCC1O,,broth dilution,,,,MIC90,,2.07 µg/mL
O=c1[nH][nH]c(=O)n2c1cc1oc(-c3ccccc3)cc12,,BACTEC,,,,MIC bound,H37Rv,>12.5 µg/mL
N[C@@H]1CN(c2c(F)cc3c(=O)c(C(=O)O)cn([C@@H]4C[C@@H]4F)c3c2Cl)CC12CC2,,,,,,MIC50,25 strains,0.1 µg/mL
Cc1cn2c(C(=O)NCc3ccc(N4CCC(c5ccc(OC(F)(F)F)cc5)CC4)cc3)c(C)nc2s1,K14b00DS,resazurin / fluorescence,,,,MIC,H37Rv,0.047 µM
CC1S/C(=N\N=C2/C(=O)Nc3ccccc32)N(c2ccc(Br)cc2)C1=O,,,,,,MIC,H37Rv,>12.5 µg/mL
Cc1cc2oc(=O)c(C(=O)/C=C/c3ccc(O)cc3O)c(O)c2cc1C,Isoniazid-resistant,agar,,,,MIC90,INHR-MTB,>6.25 µg/mL
Nc1nc(-c2ccc(Br)cc2)cc(-c2cc3cc(F)ccc3nc2Cl)n1,,broth dilution,,6.25 µg/mL,,inhibition,H37Rv,3%
O=C(NNCc1ccccc1F)c1ccncc1,,,,,,MBC,Rifampicin-resistant,0.39 µg/mL
O=[N+]([O-])C1=CN2C[C@H](OCc3ccc(OC(F)(F)F)cc3)COC2N1,,broth dilution,,,,MIC,Ddn-,>100 µM
COc1cc(/C=N/NC(=O)CCCCCCCCC(=O)N/N=C/c2ccc(O)c(OC)c2)ccc1O,,BACTEC,,,,MIC,H37Rv,≥12.5 µg/mL
O=C(N/N=C/c1cccc(F)c1)c1ccncc1,,,,,,MIC,Rifampicin-resistant,≤0.1 µg/mL
Cc1cn2c(C(=O)NCc3ccc(N4CCN(c5ccc(C(F)(F)F)cn5)CC4)c(F)c3)c(C)nc2s1,,resazurin / fluorescence,,,,MIC,H37Rv,0.004 µM
O=S1(=O)OC(c2cc(Br)c(O)c(Br)c2)(c2cc(Br)c(O)c(Br)c2)c2ccccc21,,BACTEC,,,,MIC bound,H37Rv,>12.5 µg/mL
Cc1cc2oc(=O)c(C(=O)/C=C/c3ccccn3)c(O)c2cc1C,Isoniazid-resistant,agar,,,,MIC90,INHR-MTB,>6.25 µg/mL
COc1ccccc1[C@H](c1cc2cc(Br)ccc2cc1OC)[C@@](O)(CCN(C)C)c1cccc2ccccc12,,resazurin,,,,MIC,H37Rv,0.258 µg/mL
N#C[B][n+]1ccc(C(=O)NNCC(F)(F)F)cc1,,,,,,MIC,H37Rv,0.78 µg/mL
O=c1oc2ccccc2c(O)c1C1=NNC(c2ccc(C(F)(F)F)cc2)C1,,agar,,,,MIC90,H37Rv,4.94 µg/mL
NC(=O)c1ccc[n+](Cc2ccccc2C[n+]2cccc(C(N)=O)c2)c1.[Br-].[Br-],,BACTEC,,12.5 µg/mL,,inhibition,H37Rv,4%
Cc1nn(-c2ccccc2)c2c1C(c1ccccc1Cl)C(C#N)=C(N)O2,,,,62.5 µg/mL,,inhibition,H37Rv,69%
CC(C)CN1CC(=O)N2CCCN2C(=O)C1,,BACTEC,,12.5 µg/mL,,inhibition,H37Rv,26%
Cc1cn2c(C(=O)NCc3ccc(C(F)(F)F)cc3)c(C)nc2s1,cydKO,resazurin / fluorescence,,,,MIC,H37Rv,0.047 µM
CN(C)CNC(=S)S,,,,,,MIC,CS-R,6.3 µg/mL
Cc1nn(-c2ccccc2)c2c1C(c1ccccc1)C(C#N)=C(N)O2,,,,62.5 µg/mL,,inhibition,H37Rv,21%
COc1ccc(CC2c3cc(OC)c(OC)c(OC)c3CC[N+]2(C)C)cc1Oc1ccc(CC2c3cc4c(c(OC)c3CCN2C)OCO4)cc1.[OH-],,BACTEC,,,,MIC bound,H37Rv,>12.5 µg/mL
COC(=O)c1nc(-c2cccc(F)c2)cnc1Nc1ccc(OCCCN(C)C)cc1,,resazurin,,,,MIC,H37Rv (ATCC 27294),32 µg/mL
C[C@@H]1CN(c2c(F)c(N)c3c(=O)c(C(=O)O)cn(C4CC4)c3c2F)C[C@H](C)N1,,,,,,MIC50,23 strains (rifampicin-resistant),1.56 µg/mL
Cc1ccc(-c2cnc(Nc3cnc(OCCCN4CCN(C)CC4)nc3)c(C(N)=O)n2)c(C)c1,,resazurin,,,,MIC,H37Rv (ATCC 27294),1 µg/mL
O=C1c2ccccc2C(=O)c2c1nnn2-c1ccccc1,,BACTEC,,12.5 µg/mL,,inhibition,H37Rv,69%
CC1S/C(=N\N=C2/C(=O)Nc3ccccc32)N(c2ccccc2)C1=O,,,,,,MIC,H37Rv,>12.5 µg/mL
O=C1C(=O)c2ccccc2C(O)=C1C(C1=C(O)c2ccccc2C(=O)C1=O)c1ccc(C(C2=C(O)c3ccccc3C(=O)C2=O)C2=C(O)c3ccccc3C(=O)C2=O)cc1,,BACTEC,,,,MIC bound,H37Rv,>12.8 µg/mL
O=C(O)C(CCC1CCCCC1)C(=O)O,,broth dilution,,,,MIC90,,14.7 µg/mL
CC(NNC(=O)c1ccncc1)c1ccc(F)cc1,,colony count,Macrophages,,inside macrophages,EC50,Erdman,<1.84 µg/mL
Nc1cc([N+](=O)[O-])c2[nH]c(=O)c3ccccc3c2c1,,BACTEC,,,,MIC bound,H37Rv,≤12.5 µg/mL
Cc1nn(-c2ccccc2)c2c1C(c1ccc(Cl)cc1)c1c(nc(=S)[nH]c1N)O2,,,,62.5 µg/mL,,inhibition,H37Rv,97%